Source: US9062118B2 (priority 2006, dated 2015)

Protein sequences, listed by entry. Tags and fused reporters are not part of them. Lines headed by an entry give the natural chain unless they say otherwise; changes in a name come on top. Residues count along the entry.
UniProt P02716: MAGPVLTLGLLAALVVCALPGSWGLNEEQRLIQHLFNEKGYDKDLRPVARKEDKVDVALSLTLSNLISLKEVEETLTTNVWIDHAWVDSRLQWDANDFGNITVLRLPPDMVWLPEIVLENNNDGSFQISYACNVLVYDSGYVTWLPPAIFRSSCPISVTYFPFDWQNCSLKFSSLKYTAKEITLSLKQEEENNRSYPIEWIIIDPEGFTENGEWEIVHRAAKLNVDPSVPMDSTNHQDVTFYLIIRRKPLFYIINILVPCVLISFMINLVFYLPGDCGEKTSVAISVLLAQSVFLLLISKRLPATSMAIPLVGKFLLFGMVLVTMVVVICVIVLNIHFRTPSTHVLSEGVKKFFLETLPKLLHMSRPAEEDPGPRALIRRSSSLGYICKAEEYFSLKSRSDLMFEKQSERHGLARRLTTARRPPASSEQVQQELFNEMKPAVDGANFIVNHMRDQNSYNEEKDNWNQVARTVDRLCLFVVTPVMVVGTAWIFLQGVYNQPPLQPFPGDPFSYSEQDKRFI
UniProt P04756: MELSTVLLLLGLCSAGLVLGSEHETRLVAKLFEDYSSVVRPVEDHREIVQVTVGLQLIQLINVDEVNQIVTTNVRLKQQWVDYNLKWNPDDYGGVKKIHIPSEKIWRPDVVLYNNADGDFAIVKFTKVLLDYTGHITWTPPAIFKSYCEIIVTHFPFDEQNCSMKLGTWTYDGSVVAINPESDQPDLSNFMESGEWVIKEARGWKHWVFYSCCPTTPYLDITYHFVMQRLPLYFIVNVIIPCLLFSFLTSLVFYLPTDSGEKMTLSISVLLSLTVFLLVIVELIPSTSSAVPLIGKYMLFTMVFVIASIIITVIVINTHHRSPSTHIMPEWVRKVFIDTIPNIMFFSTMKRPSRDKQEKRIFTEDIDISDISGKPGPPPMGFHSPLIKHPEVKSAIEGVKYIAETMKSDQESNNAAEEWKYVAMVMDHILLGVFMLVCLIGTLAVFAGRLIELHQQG
UniProt P20782: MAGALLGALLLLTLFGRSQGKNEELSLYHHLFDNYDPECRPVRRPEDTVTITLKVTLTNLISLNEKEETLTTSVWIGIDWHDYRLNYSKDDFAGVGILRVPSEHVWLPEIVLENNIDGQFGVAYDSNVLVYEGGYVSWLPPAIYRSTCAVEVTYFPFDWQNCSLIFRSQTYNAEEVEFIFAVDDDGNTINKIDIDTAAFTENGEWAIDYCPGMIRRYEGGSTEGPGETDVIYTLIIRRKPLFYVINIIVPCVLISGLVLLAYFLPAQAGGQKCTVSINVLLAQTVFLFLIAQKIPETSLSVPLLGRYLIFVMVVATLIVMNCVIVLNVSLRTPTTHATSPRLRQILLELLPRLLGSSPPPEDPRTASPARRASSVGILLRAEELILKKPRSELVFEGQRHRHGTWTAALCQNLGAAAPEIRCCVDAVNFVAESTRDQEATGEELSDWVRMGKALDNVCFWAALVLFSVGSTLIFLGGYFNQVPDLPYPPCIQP
UniProt P04757, 26-499 limits assumed: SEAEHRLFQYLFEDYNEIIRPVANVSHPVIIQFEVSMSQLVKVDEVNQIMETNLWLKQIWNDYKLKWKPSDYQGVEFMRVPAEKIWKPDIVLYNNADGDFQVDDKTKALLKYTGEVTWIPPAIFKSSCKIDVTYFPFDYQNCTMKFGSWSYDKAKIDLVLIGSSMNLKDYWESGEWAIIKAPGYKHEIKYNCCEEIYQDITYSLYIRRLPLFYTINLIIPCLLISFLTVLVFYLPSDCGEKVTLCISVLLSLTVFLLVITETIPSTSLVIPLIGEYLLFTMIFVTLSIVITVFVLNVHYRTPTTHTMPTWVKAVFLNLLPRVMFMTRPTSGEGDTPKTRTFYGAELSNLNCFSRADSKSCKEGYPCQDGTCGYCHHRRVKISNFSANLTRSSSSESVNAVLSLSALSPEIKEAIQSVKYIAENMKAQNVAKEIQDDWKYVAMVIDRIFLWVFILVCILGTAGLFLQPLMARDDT
UniProt P12392, 21-495 limits assumed: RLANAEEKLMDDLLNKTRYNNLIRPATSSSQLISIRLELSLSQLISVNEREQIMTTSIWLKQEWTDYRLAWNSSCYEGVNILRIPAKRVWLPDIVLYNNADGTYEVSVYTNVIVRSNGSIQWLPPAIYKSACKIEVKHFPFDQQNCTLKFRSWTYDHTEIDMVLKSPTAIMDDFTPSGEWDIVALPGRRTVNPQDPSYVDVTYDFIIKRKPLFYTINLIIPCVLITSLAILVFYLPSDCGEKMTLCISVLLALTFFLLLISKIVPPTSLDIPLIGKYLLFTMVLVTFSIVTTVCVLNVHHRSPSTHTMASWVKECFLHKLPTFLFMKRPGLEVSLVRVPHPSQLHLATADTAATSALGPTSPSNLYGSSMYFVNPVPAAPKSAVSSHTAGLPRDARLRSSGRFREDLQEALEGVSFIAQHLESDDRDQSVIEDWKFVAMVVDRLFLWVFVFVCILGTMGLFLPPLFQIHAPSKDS
UniProt P17658, whole entry, looked up: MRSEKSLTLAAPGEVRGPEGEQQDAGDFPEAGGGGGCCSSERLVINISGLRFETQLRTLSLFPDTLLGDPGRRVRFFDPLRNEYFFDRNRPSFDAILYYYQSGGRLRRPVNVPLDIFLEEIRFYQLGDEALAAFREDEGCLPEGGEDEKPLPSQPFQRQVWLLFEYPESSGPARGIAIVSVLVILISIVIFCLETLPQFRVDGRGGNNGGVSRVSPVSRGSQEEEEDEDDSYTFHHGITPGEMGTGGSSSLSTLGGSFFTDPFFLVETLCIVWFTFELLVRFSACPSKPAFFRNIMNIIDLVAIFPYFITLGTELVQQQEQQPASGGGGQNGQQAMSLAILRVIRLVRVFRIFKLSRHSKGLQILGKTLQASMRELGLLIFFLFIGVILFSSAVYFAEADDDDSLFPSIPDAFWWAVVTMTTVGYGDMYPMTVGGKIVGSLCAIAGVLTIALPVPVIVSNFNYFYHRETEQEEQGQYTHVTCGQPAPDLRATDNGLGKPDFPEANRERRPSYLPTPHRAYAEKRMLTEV

Key:
[1] = target: adult mouse muscle nAChR subtype (α1β1εδ) (Mus musculus, UniProt P02716+P04756+P20782); assay: nAChR assay, voltage clamp of Xenopus oocytes expressing adult muscle subtype; assay type: cell-based; details: for IC50: read-out: IC50 on α1β1εδ subtype of nAChR, SAR study, dose-response plots FIG. 15; for activity relative to pl14a: 10 μM, both folding isomers
[2] = target: α3β4 subtype of rat neuronal nAChR (Rattus norvegicus, UniProt P04757+P12392)
[3] = target: Kv1.6 channel (Homo sapiens, UniProt P17658)

Row | Compound | IC50 [1] | IC50 [2] | IC50 [3] | activity relative to pl14a [1]
1 | CC[C@H](C)[C@@H]1NC(=O)CNC(=O)[C@H](C)NC(=O)[C@H](CCCNC(=N)N)NC(=O)[C@@H]2CSSC[C@@H](C(=O)N[C@@H](CCCNC(=N)N)C(N)=O)NC(=O)[C@H](Cc3c[nH]cn3)NC(=O)[C@H](CSSC[C@H](NC(=O)[C@@H](NC(=O)[C@H](CCCNC(=N)N)NC(=O)[C@@H]3CCCN3C(=O)[C@H](CCCNC(=N)N)NC(=O)[C@@H]3CCCN3C(=O)[C@@H](N)Cc3ccccc3)[C@@H](C)CC)C(=O)N[C@@H](CC(N)=O)C(=O)N[C@@H](C)C(=O)N[C@@H](C)C(=O)N2)NC(=O)[C@H](Cc2ccccc2)NC(=O)[C@@H]2CCCN2C(=O)[C@H](Cc2ccc(O)cc2)NC(=O)[C@H](CCCCN)NC(=O)[C@H](Cc2c[nH]cn2)NC(=O)CNC1=O | 434 nM | 1360 nM | 2260 nM | 
2 | CC[C@H](C)[C@@H]1NC(=O)CNC(=O)[C@H](C)NC(=O)[C@H](CCCNC(=N)N)NC(=O)[C@@H]2CSSC[C@@H](C(=O)N[C@@H](CCCNC(=N)N)C(N)=O)NC(=O)[C@H](Cc3c[nH]cn3)NC(=O)[C@H](CSSC[C@H](NC(=O)[C@@H](NC(=O)[C@H](CCCNC(=N)N)NC(=O)[C@@H]3CCCN3C(=O)[C@H](CCCNC(=N)N)NC(=O)[C@@H]3CCCN3C(=O)[C@@H](N)Cc3ccccc3)[C@@H](C)CC)C(=O)N[C@@H](CC(N)=O)C(=O)N[C@@H](CC(C)C)C(=O)N[C@@H](C)C(=O)N2)NC(=O)[C@H](C)NC(=O)[C@@H]2CCCN2C(=O)[C@H](Cc2ccc(O)cc2)NC(=O)[C@H](CCCCN)NC(=O)[C@H](Cc2c[nH]cn2)NC(=O)CNC1=O | 257 nM | 2850 nM | 2410 nM | 
3 | CC[C@H](C)[C@H](NC(=O)[C@H](CCCNC(=N)N)NC(=O)[C@@H]1CCCN1C(=O)[C@H](CCCNC(=N)N)NC(=O)[C@@H]1CCCN1C(=O)[C@@H](N)Cc1ccccc1)C(=O)N[C@H]1CSSC[C@@H]2NC(=O)[C@H](Cc3ccccc3)NC(=O)[C@@H]3CCCN3C(=O)[C@H](Cc3ccc(O)cc3)NC(=O)[C@H](CCCCN)NC(=O)[C@H](Cc3c[nH]cn3)NC(=O)CNC(=O)[C@H](C)NC(=O)CNC(=O)[C@H](C)NC(=O)[C@H](CCCNC(=N)N)NC(=O)[C@H](CSSC[C@@H](C(=O)N[C@@H](CCCNC(=N)N)C(N)=O)NC(=O)[C@H](Cc3c[nH]cn3)NC2=O)NC(=O)[C@H](C)NC(=O)[C@H](CC(C)C)NC(=O)[C@H](CC(N)=O)NC1=O | 175 nM | 1600 nM | 45500 nM | 
4 | CNLACRAGIGHKYPFCHC |  |  |  | as active as pl14a
5 | CC[C@H](C)[C@@H]1NC(=O)CNC(=O)[C@H](C)NC(=O)[C@H](CCCNC(=N)N)NC(=O)[C@@H]2CSSC[C@@H](C(=O)N[C@@H](CCCNC(=N)N)C(N)=O)NC(=O)[C@H](Cc3c[nH]cn3)NC(=O)[C@H](CSSC[C@H](NC(=O)[C@@H](NC(=O)[C@H](CCCNC(=N)N)NC(=O)[C@@H]3CCCN3C(=O)[C@H](CCCNC(=N)N)NC(=O)[C@@H]3CCCN3C(=O)[C@@H](N)Cc3ccccc3)[C@@H](C)CC)C(=O)N[C@@H](CC(N)=O)C(=O)N[C@@H](CC(C)C)C(=O)N[C@@H](C)C(=O)N2)NC(=O)[C@H](Cc2ccccc2)NC(=O)[C@H](C)NC(=O)[C@H](Cc2ccc(O)cc2)NC(=O)[C@H](CCCCN)NC(=O)[C@H](Cc2c[nH]cn2)NC(=O)CNC1=O | 240 nM | 710 nM | 2220 nM | 
6 | CC[C@H](C)[C@@H]1NC(=O)CNC(=O)[C@H](C)NC(=O)[C@H](CCCNC(=N)N)NC(=O)[C@@H]2CSSC[C@@H](C(=O)N[C@@H](CCCNC(=N)N)C(N)=O)NC(=O)[C@H](Cc3c[nH]cn3)NC(=O)[C@H](CSSC[C@H](NC(=O)[C@@H](NC(=O)[C@H](CCCNC(=N)N)NC(=O)[C@@H]3CCCN3C(=O)[C@H](CCCNC(=N)N)NC(=O)[C@@H]3CCCN3C(=O)[C@@H](N)Cc3ccccc3)[C@@H](C)CC)C(=O)N[C@@H](CC(N)=O)C(=O)N[C@@H](CC(C)C)C(=O)N[C@@H](C)C(=O)N2)NC(=O)[C@H](Cc2ccccc2)NC(=O)[C@@H]2CCCN2C(=O)[C@H](Cc2ccc(O)cc2)NC(=O)[C@H](CCCCN)NC(=O)[C@H](C)NC(=O)CNC1=O | 228 nM | 3920 nM | 4600 nM | 
7 | CC[C@H](C)[C@@H]1NC(=O)CNC(=O)[C@H](C)NC(=O)[C@H](C)NC(=O)[C@@H]2CSSC[C@@H](C(=O)N[C@@H](CCCNC(=N)N)C(N)=O)NC(=O)[C@H](Cc3c[nH]cn3)NC(=O)[C@H](CSSC[C@H](NC(=O)[C@@H](NC(=O)[C@H](CCCNC(=N)N)NC(=O)[C@@H]3CCCN3C(=O)[C@H](CCCNC(=N)N)NC(=O)[C@@H]3CCCN3C(=O)[C@@H](N)Cc3ccccc3)[C@@H](C)CC)C(=O)N[C@@H](CC(N)=O)C(=O)N[C@@H](CC(C)C)C(=O)N[C@@H](C)C(=O)N2)NC(=O)[C@H](Cc2ccccc2)NC(=O)[C@@H]2CCCN2C(=O)[C@H](Cc2ccc(O)cc2)NC(=O)[C@H](CCCCN)NC(=O)[C@H](Cc2c[nH]cn2)NC(=O)CNC1=O | 355 nM | 3210 nM | 6540 nM | 
8 | CNLACRAGIGHKYPFCHCR |  |  |  | as active as pl14a
